Human monoclonal antibodies against the spike receptor-binding domain (heavy:light variable regions). IC50 against pseudoviruses bearing the spike of naturally observed variants; lower = stronger; >10 µg/ml means not reached at the top dose. No active / inactive call. The stated detection limit is 0.0005 µg/ml; values near or below 0.001 µg/ml lie at the floor of the assay.
B1: BD56-785 (protein)
chain 1: QLQLQESGPGLVKPSETLSLTCAVSGGSVSGGDNYYWGWIRQPPGKGLEWIGTIYYSGSTYYNPSLRSRVTISVDTSKNQFSLKLSSVTAADTAVYYCARINRGDFDYWGQGTLVTVSS
chain 2: DIQMTQSPSSLSASVGDRVTITCQASQDIINYLNWYQQKPGKAPKLLIYDASNLETGVPSRFSGSGSGTDFTFTISSLQPEDIATYYCQQYDNLALTFGGGTKVEIK
B2: BD56-789 (protein)
chain 1: QVQLVQSGAEVKKPGSSVKVSCKASGGTFSSYAITWVRQAPGQGLEWMGRIIPILDITKYAQKFQGRVTITADKSTSTAYMELSSLRSEDTAVYYCTRREEIDDYWGQGTLVTVSS
chain 2: SYELTQPPSVSVSPGQTASITCSGDKLGDKYAHWYQQKPGQSPVLVIYEDNKRPSGIPERFSGSNSGNTATLTISGTQAMDEADYYCQAWDSSTEVFGTGTKVTVL
B3: BD56-797 (protein)
chain 1: QVQLVESGGGVVQPGRSLRLSCAASEFTFSSFAMHWVRQAPGKGLEWVALISYDGSNKYYADSVKGRFTISRDNSKNTLDLQMNSLRAEDMAVYYCARDRWGSSSSLGCFDLWGRGTLVTVSS
chain 2: DIQMTQSPSSLSASVGDRVTITCQASQDIGNYLNWYQQKPGKAPKLLIYDASNLETGVPSRFSGSGSGTDFTFTISSLQPEDIATYYCQQFDNGFALTFGGGTKVEIK
B4: BD56-799 (protein)
chain 1: QVQLQESGPGLVKPSETLSLTCTVSGDSVSGYYWSWIRQPPRKGLEWIGFLYYSGSTDYNPSLKSRVTISLDTSKNQFSLMLRSVTAADTAVYYCVRGGDHGDYFDYWGQGTLVTVSS
chain 2: DIVMTQSPDSLAVSLGERATINCKSSQSVLYSSNNKNYLAWYQQKPGEPPKLLIYWASTRESGVPDRFSGSGSGTDFTLTISSLQAEDVALYYCQQYHSTPLTFGGGTKVEIK
B5: BD56-804 (protein)
chain 1: EVQLVESGGGLIQPGGSLRLSCAASGLTVSSNYMSWVRQAPGKGLEWVSVMYSGGSTFYADSVKGRFTISRDNSNNTLYLEMNSLRAEDTAVYYCARIAVAHDAFDIWGQGTMVTVSS
chain 2: QSVLTQPPSVSAAPGQKVTISCSGSSSNIGNNYVSWYQQLPGTAPKLLIYDNNKRPSGIPDRFSGSQSGTSATLGITGLQTGDAADYYCGTWDSSLSAGVFGGGTQLTVL
B6: BD56-817 (protein)
chain 1: EVQLLESGGGLVQPGGSLRLSCAASGFTFSNYAMSWVRQAPGKGLEWVSAISGTGGSTYYADSVKGRFTISRDNSKNTLSLQMNSLKAEDTAVYYCASPGAGGAFDIWGQGTKVTVSS
chain 2: DIQMTQSPSTLSASVGDGVTITCRASQSISTWLAWYQQKPGKAPKLLIYQASSLESGVPSRFSGSGSGTEFTLTISSLQPDDFATYYCQQYNSYSPWTFGPGTKVEIK
B7: BD56-268 (protein)
chain 1: QVTLRESGPALVKPTQTLTLTCTFSGFSLNTSGMCVSWIRQPPGKALEWLALIDWDDDKYYSTSLKTRLTISKDTSKNQVVLTMTNMDPVDTATYYCTRMVGELTDYAFDIWGQGTMVTVSS
chain 2: SYELTQPPSVSVSPGQTARITCSGDALPMQYAYWYQQKPGQAPVLVIYKDSERPSGIPERFSGSSSGTTVTLTISGVQAEDEADYYCQSADSSGTPVVFGGGTKLTVL
B8: BD56-823 (protein)
chain 1: QVQLQESGPGLVKPSGTLSLTCAVSGGSISSSNWWSWVRQPPGKGLEWIGEIYHSGSTNYNPSLKSRVTISVDKSKNQFSLKLSSVTAADTALYYCARDRFGDLDYPHYYYAMDVWGQGTTVTVSS
chain 2: DIQMTQSPSSLSASVGDRVTITCRASQGISNSLAWYQQKPGKAPKLLLYTASTLESGVPSRFSGSGSGTDYTLTISSLQPEDFATYYCQQFYSTPRTFGQGTKVEIK
B9: BD56-825 (protein)
chain 1: QVQLQESGPGLVKPSQTLSLTCTVSGGSISSGGFYWSWIRQHPGKGLEWIGHISYSGNTYYNPSLKSRVTISADTSKNQFSLKLSSVTAADTAVYYCARDLTGWFDPWGQGTLVTVSS
chain 2: EIVLTQSPGTLSLSPGERATLSCRASQSVSSFYLAWYQQKPGQAPRLLIYGASSRATGIPDRFRGSGSGTDFTLTISRLEPEDFAVYYCQQYGSSYTFGQGTKLEIK
B10: BD56-826 (protein)
chain 1: QVQLQESGPGLVKPSQTLSLTCTVSGGSISSGDYYWSWIRQPPGKGLEWIGSIYYSGTTYYNPSLKSRVTISVDTSKNQFSLKLSSVTAADTAVYYCAGGGLEYFQHWGQGPLVTVSS
chain 2: AIQLTQSPSSLSASVGDRVTISCRASQGLSSVLNWYQQKPGKAPKLLIYDASSLESGVPSRFSGSGSGTDFTLTISSLQPEDFATYYCQQFNSYLLTFGPGTKVDIK

How the values were obtained:
Experiment in all cases: pseudovirus neutralization IC50; higher = weaker neutralization
[1] = target: SARS-CoV-2 Omicron BA.1 spike pseudovirus
Protocol: (§1)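 Single-round VSV luciferase pseudovirus mixed with antibody dilutions for 1 h and put on Huh-7 cells for about a day; IC50 from the dose curve.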

[2] = target: SARS-CoV-2 Omicron BA.2 spike pseudovirus
Protocol: as §1

[3] = target: SARS-CoV-2 Omicron BA.2.75 spike pseudovirus
Protocol: as §1

[4] = target: SARS-CoV-2 Omicron BA.2.75.2 spike pseudovirus
Protocol: as §1

[5] = target: SARS-CoV-2 Omicron BA.5 spike pseudovirus
Protocol: as §1

[6] = target: SARS-CoV-2 Omicron BM.1.1.1 spike pseudovirus
Protocol: as §1

[7] = target: SARS-CoV-2 Omicron BQ.1.1 spike pseudovirus
Protocol: as §1

[8] = target: SARS-CoV-2 Omicron BR.2 spike pseudovirus
Protocol: as §1

[9] = target: SARS-CoV-2 Omicron CA.1 spike pseudovirus
Protocol: as §1

[10] = target: SARS-CoV-2 Omicron XBB spike pseudovirus
Protocol: as §1

[11] = target: SARS-CoV-2 early D614G spike pseudovirus
Protocol: as §1

| Binder | pseudovirus neutralization IC50 [1] [µg/mL] | pseudovirus neutralization IC50 [2] [µg/mL] | pseudovirus neutralization IC50 [3] [µg/mL] | pseudovirus neutralization IC50 [4] [µg/mL] | pseudovirus neutralization IC50 [5] [µg/mL] | pseudovirus neutralization IC50 [6] [µg/mL] | pseudovirus neutralization IC50 [7] [µg/mL] | pseudovirus neutralization IC50 [8] [µg/mL] | pseudovirus neutralization IC50 [9] [µg/mL] | pseudovirus neutralization IC50 [10] [µg/mL] | pseudovirus neutralization IC50 [11] [µg/mL] |
| --- | --- | --- | --- | --- | --- | --- | --- | --- | --- | --- | --- |
| B1 | 0.000981 | 0.000741 | > 10 | > 10 | > 10 | > 10 | > 10 | > 10 | > 10 | > 10 | > 10 |
| B2 | 0.00102 | 0.000704 | 0.00129 | > 10 | > 10 | > 10 | > 10 | > 10 | > 10 | > 10 | > 10 |
| B3 | 0.00145 | 0.0028 | > 10 | > 10 | 1.35 | > 10 | > 10 | > 10 | > 10 | > 10 | > 10 |
| B4 | 0.000826 | > 10 | > 10 | > 10 | > 10 | > 10 | > 10 | > 10 | > 10 | > 10 | > 10 |
| B5 | 0.0117 | > 10 | > 10 | > 10 | > 10 | > 10 | > 10 | > 10 | > 10 | > 10 | > 10 |
| B6 | 0.00748 | 0.0318 | > 10 | > 10 | > 10 | > 10 | > 10 | > 10 | > 10 | > 10 | > 10 |
| B7 | 0.026 | 0.046 | 0.0449 | 0.0435 | 0.041 | 0.0566 | > 10 | 0.0522 | 0.0496 | 0.965 | > 10 |
| B8 | 0.0117 | 0.0149 | > 10 | > 10 | > 10 | > 10 | > 10 | > 10 | > 10 | > 10 | > 10 |
| B9 | 0.00221 | 0.00361 | > 10 | > 10 | > 10 | > 10 | > 10 | > 10 | > 10 | > 10 | > 10 |
| B10 | 0.00268 | > 10 | > 10 | > 10 | > 10 | > 10 | > 10 | > 10 | > 10 | > 10 | > 10 |
